RC index of single-base changes in HIV-1 Gag

Source: Al-Mawsawi et al. 2014 (doi:10.1186/s12977-014-0124-6), supplementary data.

Protein: Gag of HIV-1 NL4-3, numbered from its first residue. Gag is numbered as the whole polyprotein.
Effects on overlapping genes or RNA elements are not listed.

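Seven fragments of pNL4-3 were mutated by error-prone PCR, and each virus pool was passaged in CEM T cells. The RC index is the frequency of a change after passage round 2 divided by its frequency in the plasmid library.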

A higher RC index is a better tolerated change; approximate classes are lethal up to 0.1, attenuated to 0.2, tolerated above. Each entry names the wild-type residue, its position and the residue put in its place. Input reads are the counts in the plasmid library. Clones carried about five changes per kilobase, which can drag down the index of neutral changes.

Q351K (base C1840A, region CA, input reads 119) gave 0.246. M367R (base T1889G, region p2, input reads 90) gave 0.0620. I401L (base A1990T, region NC p7, input reads 138) read 0.0456. A366P (base G1885C, region p2, input reads 139) read 0.0702. T371I (base C1901T, region p2, input reads 493) read 0.0933. With P292H (base C1664A, region CA, input reads 123) the assay gave 0.0736.

I247T (base T1529C, region CA, input reads 755) read 0.0518. For E428K (base G2071A, region NC p7, input reads 255) the result was 0.640. With S234I (base G1490T, region CA, input reads 175) the assay gave 0.111. For P66R (base C986G, region MA, input reads 91) the result was 0.0353. With V46D (base T926A, region MA, input reads 291) the assay gave 0.0348. For M228L (base A1471T, region CA, input reads 271) the result was 0.0635.

W316R (base T1735C, region CA, input reads 331) gave 0.0615. K95Q (base A1072C, region MA, input reads 64) read 0.100. With T70I (base C998T, region MA, input reads 360) the assay gave 0.161. P48S (base C931T, region MA, input reads 291) gave 0.0766. For V94I (base G1069A, region MA, input reads 473) the result was 0.143. For T280A (base A1627G, region CA, input reads 212) the result was 0.0621.

For Q195H (base A1374T, region CA, input reads 583) the result was 0.0244. For H89L (base A1055T, region MA, input reads 420) the result was 0.0459. V156L (base G1255C, region CA, input reads 74) gave 0.0594. With Q324R (base A1760G, region CA, input reads 273) the assay gave 0.0332. D284V (base A1640T, region CA, input reads 898) gave 0.0495. I205M (base C1404G, region CA, input reads 190) gave 0.0339.

For T389I (base C1955T, region NC p7, input reads 408) the result was 0.250. For Y301C (base A1691G, region CA, input reads 84) the result was 0.0539. A119S (base G1144T, region MA, input reads 140) read 0.125. For M187T (base T1349C, region CA, input reads 280) the result was 0.0824. For Q422H (base A2055C, region NC p7, input reads 75) the result was 0.141. V143L (base G1216C, region CA, input reads 128) read 0.0686.

With T204P (base A1399C, region CA, input reads 69) the assay gave 0.0569. D183H (base G1336C, region CA, input reads 76) read 0.0467. With K418T (base A2042C, region NC p7, input reads 93) the assay gave 0.160. With G71R (base G1000C, region MA, input reads 216) the assay gave 0.0446. Q182R (base A1334G, region CA, input reads 489) gave 0.0581. For W155S (base G1253C, region CA, input reads 58) the result was 0.0757.

L21F (base A852T, region MA, input reads 480) read 0.0413. For L31I (base C880A, region MA, input reads 52) the result was 0.351. For C426Y (base G2066A, region NC p7, input reads 899) the result was 0.0825. G226C (base G1465T, region CA, input reads 679) read 0.0285. G193E (base G1367A, region CA, input reads 495) read 0.129. P289A (base C1654G, region CA, input reads 209) gave 0.0319.

S9N (base G815A, region MA, input reads 232) gave 0.100. Y79N (base T1024A, region MA, input reads 236) gave 0.0272. E177V (base A1319T, region CA, input reads 181) read 0.0196. With G56S (base G955A, region MA, input reads 93) the assay gave 0.261. For V258I (base G1561A, region CA, input reads 675) the result was 0.0943. P289S (base C1654T, region CA, input reads 1093) gave 0.0732.

G25R (base G862A, region MA, input reads 312) gave 0.136. For G62E (base G974A, region MA, input reads 125) the result was 0.195. For L85P (base T1043C, region MA, input reads 252) the result was 0.179. For R39K (base G905A, region MA, input reads 162) the result was 0.275. For L61R (base T971G, region MA, input reads 134) the result was 0.0605. Y29C (base A875G, region MA, input reads 206) read 0.0689.

For P279T (base C1624A, region CA, input reads 269) the result was 0.0979. For L322S (base T1754C, region CA, input reads 241) the result was 0.0845. M367I (base G1890A, region p2, input reads 298) read 0.407. For S368R (base C1893A, region p2, input reads 120) the result was 0.0697. With I223N (base T1457A, region CA, input reads 626) the assay gave 0.0584. V353L (base G1846T, region CA, input reads 38) gave 0.0923.

With E106G (base A1106G, region MA, input reads 408) the assay gave 0.0788. With P254S (base C1549T, region CA, input reads 326) the assay gave 0.121. T318I (base C1742T, region CA, input reads 313) gave 0.101. For N124K (base C1161A, region MA, input reads 102) the result was 0.0215. With H358Q (base T1863A, region CA, input reads 137) the assay gave 0.0102. L201F (base A1392T, region CA, input reads 1139) gave 0.0517.

For Q141H (base A1212T, region CA, input reads 231) the result was 0.0475. For V156E (base T1256A, region CA, input reads 392) the result was 0.0693.

Extract of 6 entries:

| substitution | base | region | input reads | RC index |
|---|---|---|---|---|
| L21F | A852T | MA | 480 | 0.0413 |
| S9N | G815A | MA | 232 | 0.100 |
| E106G | A1106G | MA | 408 | 0.0788 |
| I223N | T1457A | CA | 626 | 0.0584 |
| P254S | C1549T | CA | 326 | 0.121 |
| G71R | G1000C | MA | 216 | 0.0446 |

The authors read an index above 1 as above wild type (1.9% of all changes in the genome). Nucleotide positions follow pNL4-3.